PubChem BioAssay AID1259414, Drosophila RNAi Screening Center | 2018

Purpose: 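Fly genes that alter Wolbachia amount inside host cells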 (primary screen)
Cell system: Drosophila JW18 cells infected with Wolbachia
Reagent: long dsRNA against Drosophila genes, 0.25 µg dsRNA per well of a 384-well plate
Timing: 5 days
Treatment: cells persistently infected with Wolbachia before knock-down; no added drug
Detection: 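Automated imaging of bacterial rRNA staining divided by host cell count, reported as plate-normalised robust z-score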
Direction: Wolbachia per cell robust z: higher = more Wolbachia per host cell than the plate typical
Call rule: 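Hit when robust z is 1.5 or more, or -1.5 or less, in at least two of three replicates; excludes dsRNAs with several or no targets, genes not expressed in JW18 and well A1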
The screen tested about 24,000 reagents; below is an unselected part of those with a known target gene and a result. Over the whole deposit, about 1,210 (5%) got an active call. 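Inactive calls also include excluded dsRNAs with several or no targets, genes unexpressed in JW18, and well A1, regardless of score.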

Which result is listed for CG33080 (GeneID 31491) [DRSC18080]?
Wolbachia per cell robust z, rep 1: 1.01; Wolbachia per cell robust z, rep 2: -1.82; Wolbachia per cell robust z, rep 3: 0.507; outcome: inactive

What is on record for CG33080 (GeneID 31491) [DRSC18081]?
Wolbachia per cell robust z, rep 1: 1.2; Wolbachia per cell robust z, rep 2: 1.28; Wolbachia per cell robust z, rep 3: 0.951; outcome: inactive

With CG33080 (GeneID 31491) [DRSC18285], how do the results read?
Wolbachia per cell robust z, rep 1: 0.685; Wolbachia per cell robust z, rep 2: -4.33; Wolbachia per cell robust z, rep 3: 0.847; outcome: inactive

Which result is listed for CG33080 (GeneID 31491) [DRSC25974]?
Wolbachia per cell robust z, rep 1: -3.23; Wolbachia per cell robust z, rep 2: 0.163; Wolbachia per cell robust z, rep 3: 0.634; outcome: inactive

What is on record for Hibch (GeneID 41869) [DRSC15705]?
Wolbachia per cell robust z, rep 1: 0.199; Wolbachia per cell robust z, rep 2: -5.08; Wolbachia per cell robust z, rep 3: -0.0303; outcome: inactive

With Hibch (GeneID 41869) [DRSC27536], how do the results read?
Wolbachia per cell robust z, rep 1: 0.519; Wolbachia per cell robust z, rep 2: 0.6; Wolbachia per cell robust z, rep 3: 0.404; outcome: inactive

With GlcAT-P (GeneID 39262) [DRSC10603], what was measured?
Wolbachia per cell robust z, rep 1: -1.22; Wolbachia per cell robust z, rep 2: -0.121; Wolbachia per cell robust z, rep 3: 0.265; outcome: inactive

Which result is listed for GlcAT-P (GeneID 39262) [DRSC10604]?
Wolbachia per cell robust z, rep 1: 0.62; Wolbachia per cell robust z, rep 2: -0.76; Wolbachia per cell robust z, rep 3: -0.0195; outcome: inactive

With gt (GeneID 31227) [DRSC23119], what does the deposit list?
Wolbachia per cell robust z, rep 1: 0.76; Wolbachia per cell robust z, rep 2: 0.944; Wolbachia per cell robust z, rep 3: 1.38; outcome: inactive

With gt (GeneID 31227) [DRSC28482], what was measured?
Wolbachia per cell robust z, rep 1: 0.576; Wolbachia per cell robust z, rep 2: 0.953; Wolbachia per cell robust z, rep 3: 1; outcome: inactive

What is on record for dia (GeneID 35340) [DRSC03519]?
Wolbachia per cell robust z, rep 1: -2.27; Wolbachia per cell robust z, rep 2: 0.653; Wolbachia per cell robust z, rep 3: 2.48; outcome: inactive

For dia (GeneID 35340) [DRSC24127], how do the results read?
Wolbachia per cell robust z, rep 1: 0.0378; Wolbachia per cell robust z, rep 2: 0.432; Wolbachia per cell robust z, rep 3: 1.29; outcome: inactive

For PpD6 (GeneID 49780) [DRSC00774], what was measured?
Wolbachia per cell robust z, rep 1: 0.187; Wolbachia per cell robust z, rep 2: 0.2; Wolbachia per cell robust z, rep 3: 1.41; outcome: inactive

For PpD6 (GeneID 49780) [DRSC23331], what was measured?
Wolbachia per cell robust z, rep 1: -0.997; Wolbachia per cell robust z, rep 2: -2.37; Wolbachia per cell robust z, rep 3: 0.0789; outcome: inactive

How did the screen score PpD6 (GeneID 49780) [DRSC41552]?
Wolbachia per cell robust z, rep 1: 0.926; Wolbachia per cell robust z, rep 2: 1.06; Wolbachia per cell robust z, rep 3: 0.904; outcome: inactive

For dysf (GeneID 43174) [DRSC14529], how do the results read?
Wolbachia per cell robust z, rep 1: 0.642; Wolbachia per cell robust z, rep 2: -1.49; Wolbachia per cell robust z, rep 3: -2.5; outcome: inactive

With dysf (GeneID 43174) [DRSC14895], how do the results read?
Wolbachia per cell robust z, rep 1: -2.65; Wolbachia per cell robust z, rep 2: 0.381; Wolbachia per cell robust z, rep 3: 0.338; outcome: inactive

Which result is listed for dysf (GeneID 43174) [DRSC14896]?
Wolbachia per cell robust z, rep 1: 0.442; Wolbachia per cell robust z, rep 2: 0.87; Wolbachia per cell robust z, rep 3: 2.06; outcome: inactive

With Best1 (GeneID 53431) [DRSC16909], what does the deposit list?
Wolbachia per cell robust z, rep 1: -0.112; Wolbachia per cell robust z, rep 2: -2.16; Wolbachia per cell robust z, rep 3: -5.94; outcome: active

With Best1 (GeneID 53431) [DRSC26475], how do the results read?
Wolbachia per cell robust z, rep 1: 0.45; Wolbachia per cell robust z, rep 2: -0.257; Wolbachia per cell robust z, rep 3: -0.675; outcome: inactive

For HisRS (GeneID 32841) [DRSC19986], what does the deposit list?
Wolbachia per cell robust z, rep 1: 0.983; Wolbachia per cell robust z, rep 2: -1.41; Wolbachia per cell robust z, rep 3: 0.862; outcome: inactive

Which result is listed for bol (GeneID 39049) [DRSC08964]?
Wolbachia per cell robust z, rep 1: -1.13; Wolbachia per cell robust z, rep 2: 1.29; Wolbachia per cell robust z, rep 3: 0.507; outcome: inactive

For bol (GeneID 39049) [DRSC10444], what does the deposit list?
Wolbachia per cell robust z, rep 1: -2.34; Wolbachia per cell robust z, rep 2: 0.273; Wolbachia per cell robust z, rep 3: -1.54; outcome: active

With bol (GeneID 39049) [DRSC11329], what does the deposit list?
Wolbachia per cell robust z, rep 1: -0.522; Wolbachia per cell robust z, rep 2: -5.99; Wolbachia per cell robust z, rep 3: -0.67; outcome: inactive

How did the screen score bol (GeneID 39049) [DRSC26869]?
Wolbachia per cell robust z, rep 1: -0.676; Wolbachia per cell robust z, rep 2: -1.08; Wolbachia per cell robust z, rep 3: -1.33; outcome: inactive

With CG18586 (GeneID 38659) [DRSC10325], what does the deposit list?
Wolbachia per cell robust z, rep 1: 0.82; Wolbachia per cell robust z, rep 2: 1.25; Wolbachia per cell robust z, rep 3: 0.175; outcome: inactive

With l(1)G0469 (GeneID 32371) [DRSC19412], how do the results read?
Wolbachia per cell robust z, rep 1: -0.837; Wolbachia per cell robust z, rep 2: 0.767; Wolbachia per cell robust z, rep 3: 1.04; outcome: inactive

For l(1)G0469 (GeneID 32371) [DRSC19462], what was measured?
Wolbachia per cell robust z, rep 1: -0.447; Wolbachia per cell robust z, rep 2: -1.73; Wolbachia per cell robust z, rep 3: -4.29; outcome: active

What did the screen give for nesd (GeneID 35298) [DRSC02099]?
Wolbachia per cell robust z, rep 1: 0.464; Wolbachia per cell robust z, rep 2: -0.254; Wolbachia per cell robust z, rep 3: 0.966; outcome: inactive

For nesd (GeneID 35298) [DRSC27779], how do the results read?
Wolbachia per cell robust z, rep 1: -0.0317; Wolbachia per cell robust z, rep 2: 0.155; Wolbachia per cell robust z, rep 3: 0.0431; outcome: inactive
